Data set [1] relates to RSV-A2. The data set can be described thus: Virus inhibition assay (plaque reduction), RSV-A2 on Hep-2 cells. Type of data set: cell-based, respiratory syncytial virus. The conditions noted are these: CC50/EC50; RSV-A2, Hep-2 cells.
The test system of data set [2] is HCoV-OC43. Put plainly: Virus inhibition assay (focus reduction), HCoV-OC43 on MRC-5 cells. Type of data set: cell-based, human coronavirus. The conditions noted are these: CC50/EC50; HCoV-OC43, MRC-5 cells.
Data set [3] deals with IFV-A H1N1. Put plainly: Virus inhibition assay (focus reduction), IFV-A H1N1 on MDCK cells. The data set is classed as cell-based, influenza virus. The note with it: CC50/EC50.
Data set [4] has as its system HCoV-229E. Put plainly: Virus inhibition assay, HCoV-229E on MRC-5 cells. The data set is classed as cell-based, human coronavirus.

Some results are limits rather than exact numbers.

Regarding `O=C(N[C@@H](Cc1ccc(O)cc1)C(=O)O)c1cc(-c2cccc(F)c2)c(=O)n2c1sc1ccc(OC3CCCCC3)cc12` [Compound 16], the SI in data set [1] is 3.91; in data set [2], 20.1.

For the molecule `O=C(N[C@@H](Cc1ccc(O)cc1)C(=O)O)c1cc(-c2cccs2)c(=O)n2c1sc1ccc(OC3CCCCC3)cc12` [Compound 25], the SI in data set [2] is on record as 57.0; in data set [3] it was 6.28.

In turn, `NC(=O)c1ncn([C@@H]2O[C@H](CO)[C@@H](O)[C@H]2O)n1` [ribavirin, reference compound] showed an SI in data set [1] greater than 64.9.

For `NS(=O)(=O)c1ccc(OC(=O)c2cc(-c3ccccc3)c(=O)n3c2sc2ccc(OC4CCCCC4)cc23)cc1` [Compound 23], the SI in data set [2] stood at 79.1.

As for `O=C(O)CCNC(=O)c1cc(-c2ccccc2)c(=O)n2c1sc1ccc(OC3CCCCC3)cc12` [Compound 10], the SI in data set [2] is greater than 25.1.

In data set [2], `O=C(N[C@@H](Cc1ccc(O)cc1)C(=O)O)c1cc(-c2ccc(Cl)cc2)c(=O)n2c1sc1ccc(OC3CCCCC3)cc12` [Compound 9] came in with an SI of 46.4.

`CC(C)(CC(=O)O)NC(=O)c1cc(-c2ccccc2)c(=O)n2c1sc1ccc(OC3CCCCC3)cc12` [Compound 1]: the SI in data set [1] was found to be 47.2; in data set [2], 12.3; in data set [3], 7.49; in data set [4] (CC50/EC50, HCoV 229E), 1.32. Moreover, the “EC50 value of HCoV-229E compared to HCoV-OC43 (fold higher)” value in data set [4] is recorded as ~ 10 fold.

In turn, `COc1ccc(-c2cc(C(=O)N[C@@H](Cc3ccc(O)cc3)C(=O)O)c3sc4ccc(OC5CCCCC5)cc4n3c2=O)cc1F` [Compound 2] yielded an SI in data set [2] of 17.8.

In data set [2], `O=C(N[C@@H](Cc1ccc(O)cc1)C(=O)O)c1cc(-c2ccc(F)cc2)c(=O)n2c1sc1ccc(OC3CCCCC3)cc12` [Compound 14] displayed an SI of 57.1.

As to `CCOC(=O)C1=C[C@@H](OC(CC)CC)[C@H](NC(C)=O)[C@@H](N)C1` [oseltamivir, reference compound], the SI in data set [3] is greater than 1176.

The molecule `O=C(N[C@@H](Cc1ccc(O)cc1)C(=O)O)c1ccc(=O)n2c1sc1ccc(OC3CCCCC3)cc12` [Compound 27] gave an SI in data set [2] of 18.9.
